Kd data for one molecule are collected here from PMC9642902 (2022).

In general, Kd refers to a measure of binding affinity in units of concentration. A lower Kd goes with higher affinity.

The target of the test is T1, potato ATG8-2.2 (StATG8-2.2), protein for ITC (potato).
T1 chain: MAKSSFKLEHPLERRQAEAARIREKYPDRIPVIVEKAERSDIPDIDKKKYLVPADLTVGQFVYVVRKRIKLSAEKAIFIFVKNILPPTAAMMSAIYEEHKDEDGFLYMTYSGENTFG
Kind of test: ITC. Background: Isothermal titration calorimetry measures the heat released or taken up as one component is titrated into another.

KPLDFDWEIV [PiPexRD54 AIM peptide] gave a Kd of 38 nM.
